Anti-infective test results gathered from many reports (values: NIAID ChemDB through PubChem).

All rows: host cell toxicity; cell line: MDCK; read-out: CC50

Neighbouring rows are from separate reports. CCn: concentration that lowers growth or viability of the cells by n%. Two numbers with a dash give a range or band. Blank or dashed fields: not listed here.

{"smiles": "COc1ccc(-c2cc(=O)c3c(OC)cc(OC)c([C@H]4C(=O)c5c(OC)cc(OC)cc5O[C@@H]4c4ccc(OC)cc4)c3o2)cc1", "method": "neutral red", "value": "~100 µg/mL"}
{"smiles": "Nc1ncnc2c1ncn2[C@@H]1C[C@@H](O)[C@H](CO)O1", "value": ">100 µM"}
{"smiles": "COc1cc(Cl)nc(NC(=S)NC(=O)c2ccc(Cl)nc2)n1", "method": "MTS", "value": ">300 µM"}
{"smiles": "O=C1C[C@@H](c2ccc(O)cc2)Oc2cc(O)c(-c3c(O)cc4c(c3O)C(=O)C[C@@H](c3ccc(O)cc3)O4)c(O)c21", "method": "neutral red", "value": "12 µg/mL"}
{"smiles": "CC(=O)O[C@H]1C[C@](C)(C(=O)O)CC2C3=CC(=O)C4[C@@]5(C)CC[C@H](O[C@@H]6O[C@H](C(=O)O)[C@@H](O)[C@H](O)[C@H]6O[C@@H]6O[C@H](C(=O)O)[C@@H](O)[C@H](O)[C@H]6O)C(C)(C)C5CC[C@@]4(C)[C@]3(C)CC[C@]21C", "method": "ATP", "value": ">100 µM"}
{"smiles": "C1CCN(CC2CC2)C(C2C3CC4CC(C3)CC2C4)C1", "value": "977 µM"}
{"smiles": "CC1(C)C2CC[C@]3(C)C(C(=O)C=C4C5C[C@]6(C)C[C@@H](OC6=O)[C@]5(C)CC[C@]43C)[C@@]2(C)CC[C@@H]1O[C@@H]1O[C@H](C(=O)O)[C@@H](O)[C@H](O)[C@H]1O[C@@H]1OC(C(=O)O)[C@@H](O)[C@H](O)[C@H]1O", "method": "ATP", "value": ">100 µM"}
{"smiles": "CCOC(=O)C1=C[C@@H](OC2CCCCC2)[C@H](NC(C)=O)[C@@H](N)C1", "method": "MTS", "value": ">100 µM"}
{"smiles": "Nc1ncnc2c1ncn2[C@@H]1C[C@@H](O)[C@H](CO)O1", "value": ">100 µM"}
{"smiles": "COc1cc(O)c(CC=C(C)C)c(O)c1C(=O)/C=C/c1ccc(O)cc1", "value": "6.5 µg/mL"}
{"smiles": "COc1cc(NC(=O)Nc2cccc(CNC(=O)O[C@H]3CCOC3)c2)ccc1-c1cnco1", "method": "MTT", "value": "4.8 µM"}
{"smiles": "COc1cc(C)nc(NC(=S)NC(=O)c2ccc(Cl)nc2)n1", "method": "MTS", "value": ">300 µM"}
{"smiles": "C1CCC(C2C3CC4CC(C3)CC2C4)NC1", "value": "≥977 µM"}
{"smiles": "COc1cc(OC)nc(NC(=S)NC(=O)c2cnc(Cl)c(Cl)c2)n1", "method": "MTS", "value": ">300 µM"}
{"smiles": "Cc1cn([C@@H]2C[C@@H](O)[C@H](CO)O2)c(=O)[nH]c1=O", "value": ">100 µM"}
{"smiles": "Cc1cc(Cl)nc(NC(=O)NC(=O)c2c(F)cccc2F)n1", "method": "MTS", "value": ">300 µM"}
{"smiles": "CCCN(CCC)c1c([N+](=O)[O-])cc(C(F)(F)F)cc1[N+](=O)[O-]", "value": ">10 µM"}
{"smiles": "CCOc1cc(OCC)n2sc(=NC(=O)c3ccc(-c4ccc([N+](=O)[O-])cc4)o3)nc2n1", "method": "MTS", "value": ">300 µM"}
{"smiles": "Cc1cn([C@@H]2C[C@@H](O)[C@H](CO)O2)c(=O)[nH]c1=O", "value": ">100 µM"}
{"smiles": "CC(C)(C)NC(=O)NC(=S)NC(=O)c1c(F)cccc1F", "method": "MTS", "value": ">300 µM"}
{"smiles": "C#Cc1c(C(N)=O)ncn1[C@@H]1O[C@H](CO)[C@@H](O)[C@H]1O", "method": "MTT / neutral red", "value": "5.6 µg/mL"}
{"smiles": "COc1cc(OC)nc(NC(=S)NC(=O)c2ccc(-c3ccccc3Cl)o2)n1", "method": "MTS", "value": ">300 µM"}
{"smiles": "NC12CC3CC(CC(C3)C1)C2", "value": "40–1000 µM"}

2 of the rows above, restated:

smiles | method | value
C#Cc1c(C(N)=O)ncn1[C@@H]1O[C@H](CO)[C@@H](O)[C@H]1O | MTT / neutral red | 5.6 µg/mL
CCCN(CCC)c1c([N+](=O)[O-])cc(C(F)(F)F)cc1[N+](=O)[O-] | - | >10 µM